Paper PMC5915575

System: SigB
Assay: EMSA
Conditions: free probe nearly gone at 12 ug protein, 10 pmol DNA, EMSA: 10 mM Tris-HCl pH 7.5, 1 mM EDTA, 50 mM NaCl, 5% glycerol, 30 min room temperature, 0-18 ug protein, 5% native PAGE at 4 °C, recombinant protein, residues 1-255, protein details: C-terminal 6xHis (pET22b), probe letters rebuilt from the primers and the genome

CCAAAGTAAATTATAAGTTATACATCTCGTTTTTAAATGACAATTTATCCCCGTAAATATTATAAATAATCTTTTCAAATTCCACATAGATATAGAGACACTAATAAACCTCTTTGTCTCGATATGATAGTCTGCAACGATTCATGTTGTAGGCTTTTTAATTTTACAAATAAGGCTAAATATATAAGTTCTGGCACCTAAAATATAGAAAATACATAAAAGTAAGTATAGTTATTTTATTATAATTATTAAATTTTTATTAATTAATTGTAAAAATGTAGAATTATAATTAATTAACGTTTAATATTAAAATTAACTAAAAAGAAAGAGGTG (double strand) [nuc promoter EMSA probe]
binding result: binds
